The chains behind the UniProt entries cited, without tags or fusion partners. Residues count along the entry.
UniProt Q9Y5Y6, whole entry: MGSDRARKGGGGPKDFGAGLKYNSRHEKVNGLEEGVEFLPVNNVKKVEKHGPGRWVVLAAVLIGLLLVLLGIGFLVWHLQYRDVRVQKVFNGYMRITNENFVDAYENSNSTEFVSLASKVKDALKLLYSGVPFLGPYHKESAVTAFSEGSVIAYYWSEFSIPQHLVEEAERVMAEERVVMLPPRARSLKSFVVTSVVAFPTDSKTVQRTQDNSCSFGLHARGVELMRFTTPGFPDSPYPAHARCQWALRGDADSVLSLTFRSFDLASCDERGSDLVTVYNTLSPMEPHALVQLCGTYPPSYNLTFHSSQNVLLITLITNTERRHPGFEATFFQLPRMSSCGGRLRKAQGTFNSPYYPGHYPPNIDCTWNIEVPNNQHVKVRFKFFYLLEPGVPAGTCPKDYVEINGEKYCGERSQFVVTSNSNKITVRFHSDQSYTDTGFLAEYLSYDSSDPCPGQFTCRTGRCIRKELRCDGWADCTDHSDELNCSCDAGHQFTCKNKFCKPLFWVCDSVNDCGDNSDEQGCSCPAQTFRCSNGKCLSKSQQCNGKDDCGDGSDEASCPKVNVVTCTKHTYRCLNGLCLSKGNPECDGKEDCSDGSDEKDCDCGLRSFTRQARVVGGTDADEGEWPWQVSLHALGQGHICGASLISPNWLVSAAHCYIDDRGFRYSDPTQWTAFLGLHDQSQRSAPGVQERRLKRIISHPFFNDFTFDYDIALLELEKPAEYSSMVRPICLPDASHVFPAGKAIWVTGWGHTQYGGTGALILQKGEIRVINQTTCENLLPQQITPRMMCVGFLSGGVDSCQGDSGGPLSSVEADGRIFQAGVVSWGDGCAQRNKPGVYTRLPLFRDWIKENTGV
UniProt P00742, 235-488 limits assumed: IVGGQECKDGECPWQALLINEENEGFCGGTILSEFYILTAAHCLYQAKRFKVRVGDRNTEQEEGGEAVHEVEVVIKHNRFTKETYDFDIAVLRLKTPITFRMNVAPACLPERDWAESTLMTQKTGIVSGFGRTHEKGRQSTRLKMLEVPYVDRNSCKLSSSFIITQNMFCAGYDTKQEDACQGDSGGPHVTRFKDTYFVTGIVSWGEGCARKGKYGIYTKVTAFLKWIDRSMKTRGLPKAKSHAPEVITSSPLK
UniProt P00742, 41-179 partner limits assumed: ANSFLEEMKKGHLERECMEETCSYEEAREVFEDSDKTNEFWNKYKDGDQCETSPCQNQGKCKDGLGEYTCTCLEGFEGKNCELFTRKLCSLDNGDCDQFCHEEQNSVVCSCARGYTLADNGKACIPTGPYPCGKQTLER
UniProt O15393, whole entry: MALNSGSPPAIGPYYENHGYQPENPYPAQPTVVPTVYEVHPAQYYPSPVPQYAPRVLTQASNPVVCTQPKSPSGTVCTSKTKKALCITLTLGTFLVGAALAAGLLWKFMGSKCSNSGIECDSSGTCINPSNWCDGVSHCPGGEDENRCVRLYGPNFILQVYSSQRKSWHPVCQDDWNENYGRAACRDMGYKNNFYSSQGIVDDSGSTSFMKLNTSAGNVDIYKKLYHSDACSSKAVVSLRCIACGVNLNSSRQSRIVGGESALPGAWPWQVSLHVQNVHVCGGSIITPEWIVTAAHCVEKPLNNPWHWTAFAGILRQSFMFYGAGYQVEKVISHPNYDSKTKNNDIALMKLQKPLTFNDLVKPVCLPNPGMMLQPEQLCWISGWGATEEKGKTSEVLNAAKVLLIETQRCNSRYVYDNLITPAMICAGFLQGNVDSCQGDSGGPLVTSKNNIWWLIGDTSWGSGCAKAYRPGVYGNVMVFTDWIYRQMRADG

In article PMC9270327 (Communications Biology, 2022):

What was measured:
[1] = target: recombinant human matriptase (Homo sapiens, UniProt Q9Y5Y6); assay: Enzyme inhibition assay with purified matriptase (Ki, dose-response); assay type: biochemical; details: quotient Ki matriptase / Ki TMPRSS2
factor Xa = factor Xa (Homo sapiens, UniProt P00742); assay: Enzyme inhibition assay with purified factor Xa (Ki, dose-response); assay type: biochemical; details: for factor Xa activity, Mean (Fig. 2d): normalized, 0 nM = 100
[2] = target: TMPRSS2 expressed in HEK293T cells (Homo sapiens, UniProt O15393); assay: Inhibition of cellular TMPRSS2 activity on HEK293T cells transiently expressing TMPRSS2; assay type: cell-based; details: 2 h; for normalized fluorescence intensity, HEK293T TMPRSS2, Mean (Fig. 4b): corrected for mock-transfected cells
[3] = system: lentiviral pseudoparticles carrying SARS-CoV-2 Wuhan-Hu-1 spike, Caco-2 cells; assay: Pseudovirus inhibition assay, wild-type (Wuhan-Hu-1) spike; details: for SARS-CoV-2 spike driven entry, Mean (0 nM = 100): Fig. 5a, Wuhan-Hu-1 spike pseudoparticles
[4] = system: lentiviral pseudoparticles carrying SARS-CoV-2 Alpha (B.1.1.7) spike, Caco-2 cells; assay: Pseudovirus inhibition assay, Alpha spike; details: for SARS-CoV-2 spike driven entry, Mean (0 nM = 100): Fig. 5b, Alpha spike pseudoparticles
[5] = system: lentiviral pseudoparticles carrying SARS-CoV-2 Beta (B.1.351) spike, Caco-2 cells; assay: Pseudovirus inhibition assay, Beta spike; details: for SARS-CoV-2 spike driven entry, Mean (0 nM = 100): Fig. 5c, Beta spike pseudoparticles
[6] = system: lentiviral pseudoparticles carrying SARS-CoV-2 Delta (B.1.617.2) spike, Caco-2 cells; assay: Pseudovirus inhibition assay, Delta spike; details: for SARS-CoV-2 spike driven entry, Mean (0 nM = 100): Fig. 5d, Delta spike pseudoparticles
[7] = system: lentiviral pseudoparticles carrying SARS-CoV-2 Omicron BA.1 (B.1.1.529) spike, Caco-2 cells; assay: Pseudovirus inhibition assay, Omicron BA.1 spike; details: for SARS-CoV-2 spike driven entry, Mean (0 nM = 100): Fig. 5e, Omicron BA.1 spike pseudoparticles
[8] = system: SARS-CoV-2 Wuhan-Hu-1, Caco-2 cells; assay: SARS-CoV-2 inhibition assay, Wuhan-Hu-1 (in-cell ELISA); details: for SARS-CoV-2 infection, Mean (0 nM = 100): Fig. 6a, Wuhan-Hu-1; for IC50: read-out: IC50 SARS-CoV-2 Wuhan-Hu-1, Caco-2 cells
[9] = system: SARS-CoV-2 Alpha (B.1.1.7), Caco-2 cells; assay: SARS-CoV-2 inhibition assay, VOC Alpha (in-cell ELISA); details: for SARS-CoV-2 infection, Mean (0 nM = 100): Fig. 6c, VOC Alpha; for IC50: read-out: IC50 SARS-CoV-2 Alpha, Caco-2 cells
[10] = system: SARS-CoV-2 Beta (B.1.351), Caco-2 cells; assay: SARS-CoV-2 inhibition assay, VOC Beta (in-cell ELISA); details: for SARS-CoV-2 infection, Mean (0 nM = 100): Fig. 6d, VOC Beta; for IC50: read-out: IC50 SARS-CoV-2 Beta, Caco-2 cells
TMPRSS2 = TMPRSS2 (Homo sapiens, UniProt O15393); details: for TMPRSS2 activity, Mean (Fig. 2a): normalized, 0 nM = 100
[11] = target: cellular TMPRSS2 activity, Caco-2 cells (Homo sapiens, UniProt O15393); details: for cellular protease activity on Caco-2 cells, Mean (Fig. 4a): normalized, 0 nM = 100
[12] = in-cell ELISA 2 days post infection

`CC(=O)N[C@@H](CC(N)=O)C(=O)N1CCC[C@H]1C(=O)NC(CCCNC(=N)N)C(=O)c1nc2ccccc2s1` (stereo partly shown) was tested, and the Selectivity index Matriptase [1] was 2.1, the “factor Xa activity, Mean (Fig. 2d)” value (factor Xa; 0.02 nM) was 95.1086 and the “factor Xa activity, Mean (Fig. 2d)” value (factor Xa; 0.04 nM) was 92.1131. For the same molecule, the “factor Xa activity, Mean (Fig. 2d)” value (factor Xa; 0.2 nM) was 91.4826, the “factor Xa activity, Mean (Fig. 2d)” value (factor Xa; 2 nM) was 90.5364 and the “factor Xa activity, Mean (Fig. 2d)” value (factor Xa; 20 nM) was 72.2396. The “factor Xa activity, Mean (Fig. 2d)” value (factor Xa; 200 nM) was 33.9124, the “factor Xa activity, Mean (Fig. 2d)” value (factor Xa; 10000 nM) was 7.413 and the “factor Xa activity, Mean (Fig. 2d)” value (factor Xa; 100000 nM) was 8.99. For the same molecule, the Selectivity index Factor Xa (factor Xa; quotient Ki factor Xa / Ki TMPRSS2) was 16.4, the “normalized fluorescence intensity, HEK293T TMPRSS2, Mean (Fig. 4b)” value (shortened to “normalized fluorescence intensity”) ([2]; 0.5 nM) was 56.545 and the “normalized fluorescence intensity” value ([2]; 5 nM) was 47.24. For the same molecule, the “normalized fluorescence intensity” value ([2]; 50 nM) was 21.26, the “normalized fluorescence intensity” value ([2]; 500 nM) was 6.37 and the “normalized fluorescence intensity” value ([2]; 5000 nM) was 2.07. The “normalized fluorescence intensity” value ([2]; 50000 nM) was -9.245, the IC50 ([2]; read-out: IC50 HEK293T TMPRSS2, corrected for mock-transfected HEK293T cells) was 2.2 nM and the “SARS-CoV-2 spike driven entry, Mean (0 nM = 100)” value (shortened to “SARS-CoV-2 spike driven entry”) ([3]; compound 32 nM) was 85.246. The “SARS-CoV-2 spike driven entry” value ([3]; compound 160 nM) was 76.54, the “SARS-CoV-2 spike driven entry” value ([3]; compound 800 nM) was 37.531 and the “SARS-CoV-2 spike driven entry” value ([3]; compound 4000 nM) was 10.003. For the same molecule, the “SARS-CoV-2 spike driven entry” value ([3]; compound 20000 nM) was 2.2675, the “SARS-CoV-2 spike driven entry” value ([3]; compound 100000 nM) was 1.7495 and the IC50 ([3]; read-out: IC50 pseudotyped lentivirus Wuhan-Hu-1, Caco-2 cells, luciferase 2 days post transduction) was 467 nM. The “SARS-CoV-2 spike driven entry” value ([4]; compound 3.2 nM) was 90.773, the “SARS-CoV-2 spike driven entry” value ([4]; compound 16 nM) was 82.272 and the “SARS-CoV-2 spike driven entry” value ([4]; compound 80 nM) was 71.344. The “SARS-CoV-2 spike driven entry” value ([4]; compound 400 nM) was 45.062, the “SARS-CoV-2 spike driven entry” value ([4]; compound 2000 nM) was 19.8955 and the “SARS-CoV-2 spike driven entry” value ([4]; compound 10000 nM) was 3.898. For the same molecule, the “SARS-CoV-2 spike driven entry” value ([4]; compound 50000 nM) was 1.112, the IC50 ([4]; read-out: IC50 pseudotyped lentivirus Alpha, Caco-2 cells, luciferase 2 days post transduction) was 261 nM and the “SARS-CoV-2 spike driven entry” value ([5]; compound 3.2 nM) was 68.321. The “SARS-CoV-2 spike driven entry” value ([5]; compound 16 nM) was 77.68, the “SARS-CoV-2 spike driven entry” value ([5]; compound 80 nM) was 60.2285 and the “SARS-CoV-2 spike driven entry” value ([5]; compound 400 nM) was 49.373. For the same molecule, the “SARS-CoV-2 spike driven entry” value ([5]; compound 2000 nM) was 15.6375, the “SARS-CoV-2 spike driven entry” value ([5]; compound 10000 nM) was 3.6185 and the “SARS-CoV-2 spike driven entry” value ([5]; compound 50000 nM) was 0.9345. For the same molecule, the IC50 ([5]; read-out: IC50 pseudotyped lentivirus Beta, Caco-2 cells, luciferase 2 days post transduction) was 153 nM, the “SARS-CoV-2 spike driven entry” value ([6]; compound 3.2 nM) was 88.2203 and the “SARS-CoV-2 spike driven entry” value ([6]; compound 16 nM) was 83.5589. The “SARS-CoV-2 spike driven entry” value ([6]; compound 80 nM) was 74.0893, the “SARS-CoV-2 spike driven entry” value ([6]; compound 400 nM) was 48.0755 and the “SARS-CoV-2 spike driven entry” value ([6]; compound 2000 nM) was 17.171. The “SARS-CoV-2 spike driven entry” value ([6]; compound 10000 nM) was 3.181, the “SARS-CoV-2 spike driven entry” value ([6]; compound 50000 nM) was 0.8148 and the IC50 ([6]; read-out: IC50 pseudotyped lentivirus Delta, Caco-2 cells, luciferase 2 days post transduction) was 286 nM. The “SARS-CoV-2 spike driven entry” value ([7]; compound 3.2 nM) was 103.951, the “SARS-CoV-2 spike driven entry” value ([7]; compound 16 nM) was 90.1812 and the “SARS-CoV-2 spike driven entry” value ([7]; compound 80 nM) was 63.0313. For the same molecule, the “SARS-CoV-2 spike driven entry” value ([7]; compound 400 nM) was 37.1174, the “SARS-CoV-2 spike driven entry” value ([7]; compound 2000 nM) was 15.0517 and the “SARS-CoV-2 spike driven entry” value ([7]; compound 10000 nM) was 3.7. The “SARS-CoV-2 spike driven entry” value ([7]; compound 50000 nM) was 4.974, the IC50 ([7]; read-out: IC50 pseudotyped lentivirus Omicron BA.1, Caco-2 cells, luciferase 2 days post transduction) was 196 nM and the “SARS-CoV-2 infection, Mean (0 nM = 100)” value ([8]; compound 32 nM) was 104.615. For the same molecule, the “SARS-CoV-2 infection, Mean (0 nM = 100)” value ([8]; compound 160 nM) was 108.018, the “SARS-CoV-2 infection, Mean (0 nM = 100)” value ([8]; compound 800 nM) was 104.617 and the “SARS-CoV-2 infection, Mean (0 nM = 100)” value ([8]; compound 4000 nM) was 56.7382. The “SARS-CoV-2 infection, Mean (0 nM = 100)” value ([8]; compound 20000 nM) was 8.19, the “SARS-CoV-2 infection, Mean (0 nM = 100)” value ([8]; compound 100000 nM) was 0.9597 and the IC50 ([8]; 2 days post infection) was 4700 nM. The IC50 [8, 12] was 4650 nM, the “SARS-CoV-2 infection, Mean (0 nM = 100)” value ([9]; compound 32 nM) was 94.3889 and the “SARS-CoV-2 infection, Mean (0 nM = 100)” value ([9]; compound 160 nM) was 95.9912. The “SARS-CoV-2 infection, Mean (0 nM = 100)” value ([9]; compound 800 nM) was 93.3105, the “SARS-CoV-2 infection, Mean (0 nM = 100)” value ([9]; compound 4000 nM) was 86.2794 and the “SARS-CoV-2 infection, Mean (0 nM = 100)” value ([9]; compound 20000 nM) was 2.126. The “SARS-CoV-2 infection, Mean (0 nM = 100)” value ([9]; compound 100000 nM) was -2.404, the IC50 ([9]; 2 days post infection) was 6800 nM and the IC50 [9, 12] was 6780 nM. The “SARS-CoV-2 infection, Mean (0 nM = 100)” value ([10]; compound 32 nM) was 88.3299, the “SARS-CoV-2 infection, Mean (0 nM = 100)” value ([10]; compound 160 nM) was 85.7403 and the “SARS-CoV-2 infection, Mean (0 nM = 100)” value ([10]; compound 800 nM) was 74.777. The “SARS-CoV-2 infection, Mean (0 nM = 100)” value ([10]; compound 4000 nM) was 79.2031, the “SARS-CoV-2 infection, Mean (0 nM = 100)” value ([10]; compound 20000 nM) was 1.415 and the “SARS-CoV-2 infection, Mean (0 nM = 100)” value ([10]; compound 100000 nM) was -2.338. For the same molecule, the IC50 ([10]; 2 days post infection) was 6300 nM, the IC50 [10, 12] was 6260 nM and the “TMPRSS2 activity, Mean (Fig. 2a)” value (TMPRSS2; 0.05 nM) was 103.592. For the same molecule, the “TMPRSS2 activity, Mean (Fig. 2a)” value (TMPRSS2; 0.5 nM) was 102.086, the “TMPRSS2 activity, Mean (Fig. 2a)” value (TMPRSS2; 5 nM) was 54.1136 and the “TMPRSS2 activity, Mean (Fig. 2a)” value (TMPRSS2; 50 nM) was 9.965. For the same molecule, the “TMPRSS2 activity, Mean (Fig. 2a)” value (TMPRSS2; 500 nM) was 1.043, the “TMPRSS2 activity, Mean (Fig. 2a)” value (TMPRSS2; 5000 nM) was 0 and the “TMPRSS2 activity, Mean (Fig. 2a)” value (TMPRSS2; 50000 nM) was 0.1159. The “TMPRSS2 activity, Mean (Fig. 2a)” value (TMPRSS2; 500000 nM) was -0.4635, the “fold more active than FOY-251 against isolated TMPRSS2” value (TMPRSS2; ratio of Ki values) was 2–3 fold and the “cellular protease activity on Caco-2 cells, Mean (Fig. 4a)” value (“cellular protease activity” for short) ([11]; 0.1 nM) was 91.9048. The “cellular protease activity” value ([11]; 1 nM) was 92.381, the “cellular protease activity” value ([11]; 10 nM) was 51.6667 and the “cellular protease activity” value ([11]; 100 nM) was 22.619. For the same molecule, the “cellular protease activity” value ([11]; 1000 nM) was 2.619, the “cellular protease activity” value ([11]; 10000 nM) was 0.9524 and the “cellular protease activity” value ([11]; 100000 nM) was 1.071. For the same molecule, the IC50 ([11]; read-out: IC50 Caco2, cell-mediated proteolysis of Boc-Gln-Ala-Arg-AMC, 30 min preincubation) was 12.7 nM.

Where two headings read alike, the source gives them in different places.
